Measured values from ChEMBL document CHEMBL1629474, “Massive screening yields novel and selective Trypanosoma cruzi triosephosphate isomerase dimer-interface-irreversible inhibitors with anti-trypanosomal activity” (Eur J Med Chem, 2010).
Calls of active or inactive are those of the source. The rule behind the calls is not given here.

Amino acid sequences for entries named in this document (tags omitted). A change or cut given only in a name is not applied to a line headed by its entry.
UniProt P52270: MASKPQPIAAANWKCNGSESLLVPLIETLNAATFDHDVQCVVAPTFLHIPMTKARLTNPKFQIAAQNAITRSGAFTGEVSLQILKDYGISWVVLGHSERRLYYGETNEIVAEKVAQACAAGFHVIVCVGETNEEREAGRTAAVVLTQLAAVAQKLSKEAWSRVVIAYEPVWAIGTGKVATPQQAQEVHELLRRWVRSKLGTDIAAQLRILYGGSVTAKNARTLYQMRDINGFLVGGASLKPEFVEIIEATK

What was measured:
Trypanosoma cruzi = experiment: Antiparasitic activity against Trypanosoma cruzi T2 epimastigotes assessed as growth inhibition at 25 uM after 5 days; format: functional
Procedure, shortened: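 Late-log epimastigotes were grown axenically at 28 °C in BHI-tryptose with 5% fetal calf serum and seeded at 2×10^6/mL in medium containing compound (DMSO stock; final DMSO ≤1%, 1% DMSO control). Growth was read as A590 at day 0 and day 5. Inhibition = {1 − [(Ap − A0p)/(Ac − A0c)]} × 100. Means of two experiments.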

[1] = Selectivity for Trypanosoma cruzi triosephosphate isomerase over human triosephosphate isomerase
[2] = biological target: Triosephosphate isomerase, glycosomal (Trypanosoma cruzi) (UniProt P52270); experiment: Inhibition of Trypanosoma cruzi triosephosphate isomerase at 400 uM after 2 hrs
Procedure, shortened: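 Recombinant E. coli-expressed enzyme, dialyzed into 100 mM triethanolamine/10 mM EDTA pH 7.4, was incubated with compound (DMSO stock) in 100 mM triethanolamine, 10 mM EDTA, pH 7.4, 10% DMSO at 36 °C for 2 h. An aliquot was then assayed for activity (glyceraldehyde 3-phosphate to dihydroxyacetone phosphate, α-glycerol phosphate dehydrogenase-coupled) with 5 ng enzyme. Irreversible inhibition was scored as loss of activity; means of two experiments.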

Structure (SMILES) | Activity (Trypanosoma cruzi) | Ratio [1] | inhibition [2] [%]
O=[N+]([O-])c1cccc2no[n+]([O-])c12 | Active | > 4 | 33
ClCCNCc1ccc2c(c1)OCO2 | Active | > 4 | 23
O=[N+]([O-])c1no[n+]([O-])c1-c1ccccc1 | Active | > 4 | 71
O=[N+]([O-])c1ccc2no[n+]([O-])c2c1 | Active | > 4 | 29
